# Results as given in patent US20100003217A1, “Compounds and Pharmaceutical Compositions for the Treatment of Viral Infections” (priority 2008, published 2010).
# How the values were obtained:
# [1] = system: S282T HCV replicon (184R-A cells); conditions: 184R-A (S282T); EC50 in resistant line divided by EC50 in wild-type cells
# Method: 3. The 184R-A cell line was derived by culturing wild-type replicon cells in the presence of 1 to 5 μM of Compound 1 for >100 days.
# (§1) 1. […] Huh-7 cells were seeded into column 1 of each plate at a similar density.
# (§2) 2. […] Eight additional 3-fold serial dilutions of each compound were prepared from the 2× stock in assay medium. Final drug concentrations ranged from 100 to 0.015 μM.
# (§3) 3. […] This setup was run in duplicate in each 96-well plate.
# (§4) 4. Cells were incubated with inhibitors for three days at 37° C./5% CO2.
# (§5) 1. After three days of drug treatment, media was removed from the plates via gentle tapping and the cells were fixed to the plates with 100 μL/well of 1:1 acetone:methanol.
# (§6) 2. After one minute of incubation at room temperature, plates were washed three times with 100 μL/well of ELISA wash solution and then blocked with 150 μL/well of 10% FBS-TNE.
# (§7) 3. After a one hour incubation at room temperature, plates were washed three times with 100 μL/well of ELISA wash solution, and then 100 μL/well of mouse anti-hepatitis C […] mAb (1 mg/mL stock diluted 1:1,500 in 10% FBS-TNE) was added.
# 4. […]
# (§8) 6. The absorbance was measured at 490 nm on a Victor^3 V 1420 multilabel counter (Perkin Elmer). The percent inhibition of HCV replicon replication was calculated for each drug using an average of the duplicate wells.
# [2] = system: wild-type HCV replicon (GS4.1 cells); conditions: GS4.1 (wild-type), EC50 reference
# Method: as §1, §2, §3, §4, §5, §6, §7
# (§9) 4. Following 2 hours of incubation at 37° C., plates were washed three times with 100 μL/well of ELISA wash solution, and then 100 μL/well of HRP-goat anti-mouse antibody (diluted 1:4,000 in 10% FBS-TNE) was added.
# 4. […]
# as §8
# [3] = system: S282T HCV replicon (184R-D2 cells); conditions: 184R-D2 (S282T); EC50 in resistant line divided by EC50 in wild-type cells
# Method: as §1, §2, §3, §4, §5, §6, §7, §9
# 4. […]
# as §8
smiles,measurement,setting,value
"NC(=O)c1ncn([C@@H]2O[C@H](CO)[C@@H](O)[C@H]2O)n1 [RBV, ribavirin, reference compound]",Fold shift from wild-type,[1],0.32 fold
same,Fold shift from wild-type,[2],1 fold
same,Fold shift from wild-type,[3],0.45 fold
